{"sequences": {"note": "The chains behind the UniProt entries cited, without tags or fusion partners. Where a name states a change or a piece, a line headed by the entry shows the natural chain unless it says otherwise.", "UniProt Q05127": "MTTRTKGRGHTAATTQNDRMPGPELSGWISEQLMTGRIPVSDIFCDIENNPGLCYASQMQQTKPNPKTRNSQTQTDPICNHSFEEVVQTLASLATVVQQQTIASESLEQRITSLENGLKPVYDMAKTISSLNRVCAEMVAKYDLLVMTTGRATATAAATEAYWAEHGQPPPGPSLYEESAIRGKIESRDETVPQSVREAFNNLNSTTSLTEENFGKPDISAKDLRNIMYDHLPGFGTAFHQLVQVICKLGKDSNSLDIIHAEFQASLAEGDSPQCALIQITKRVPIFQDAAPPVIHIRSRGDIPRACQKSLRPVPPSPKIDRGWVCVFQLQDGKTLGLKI"}, "source": "paper PMC10942258", "about": "(PLOS Biology, 2024)", "target": "tagged full-length purified WT VP35 (for MST) (Zaire ebolavirus (EBOV)) (UniProt Q05127)", "assay": "MST"}
{"substance": "unanchored K63-linked polyUb chains [2–12] (from UniProt P0CG48 1-76)", "values": [{"measurement": "Kd", "result": 15, "unit": "nM"}]}
